Source: paper PMC5517563 (Scientific Reports, 2017)

What was measured:
[1] = test system: O=P(O)(O)O; experiment: purified protein; details: acetate-forming direction; co-substrate acetyl phosphate; 10 mM MgCl2, 100 mM Tris-HCl pH 7.0, 37 °C; apparent; pH 7.0; 37.0 °C
[2] = test system: O=P(O)(O)OP(=O)(O)O; experiment: purified protein; details: acetyl phosphate-forming direction; co-substrate acetate; 5 mM MgCl2, morpholinoethanesulfonic acid pH 5.5, 600 mM hydroxylamine, 45 °C; apparent; pH 5.5

| Substance | Km [1] [mM] | kcat [1] [s⁻¹] | kcat/Km [1] [M⁻¹ s⁻¹] | Km [2] [mM] | kcat [2] [s⁻¹] | kcat/Km [2] [M⁻¹ s⁻¹] |
| --- | --- | --- | --- | --- | --- | --- |
| EhACK (Entamoeba histolytica acetate kinase) (Entamoeba histolytica HM-1:IMSS; D272A/M324I/Q323G/R274A) | 18 ± 1.2 | 0.076 | 4 |  |  |  |
| EhACK (Entamoeba histolytica acetate kinase) (Entamoeba histolytica HM-1:IMSS; M324I/Q323G) | 7.3 ± 0.5 | 28 | 3800 | 2.0 ± 0.37 | 0.45 | 230 |
